Compound potency records, mixed from different reports. Data source: NIAID ChemDB in PubChem.

Common to all: whole-cell or culture tests; agent: HIV-1

Fold resistance: result on the changed form divided by that on wild type.

{"compound": "Nc1nc(NC2CC2)c2ncn([C@H]3C=C[C@@H](CO)C3)c2n1", "changes": "RT-A62V V75I F77C F116Y Q151M", "read-out": "EC90", "cell line": "PBMC", "strain or isolate": "XM-Q151M", "read by": "p24", "result": "3.1 µM"}
{"compound": "Cc1cc(S(N)(=O)=O)ccc1NC(=O)COc1ccc(Cl)cc1C(=O)c1cc(Cl)cc(C#N)c1", "changes": "RT-K103N G190A", "read-out": "fold resistance", "cell line": "HeLa + HELA CD4+", "strain or isolate": "HXB2 (RT-K103N G190A) Recombinant", "read by": "β-galactosidase", "result": "~1"}
{"compound": "CSc1ccccc1CNC(=O)c1nc2n(c(=O)c1O)CN(C)C2(C)C", "read-out": "EC95", "cell line": "MT-4", "read by": "p24", "result": "<50 µM"}
{"compound": "Cc1ccc(C)n1-c1ccc(C(=O)O)c(O)c1", "read-out": "EC90", "cell line": "MT-2", "strain or isolate": "IIIB X4 CLADE B", "read by": "p24", "result": "2.81 µM"}
{"compound": "Cc1cc(S(N)(=O)=O)ccc1NC(=O)COc1ccc(Cl)cc1C(=O)c1cc(Cl)cc(Cl)c1", "changes": "RT-K103N", "read-out": "fold resistance", "cell line": "HeLa + HELA CD4+", "strain or isolate": "HXB2", "read by": "β-galactosidase", "result": "~1"}
{"compound": "COCCOc1cc(Cl)ccc1CNC(=O)C[C@@]12CC[C@]3(C)[C@H](CC[C@@H]4[C@@]5(C)CC[C@H](OC(=O)[C@H]6C[C@@H](C(=O)O)C6(C)C)C(C)(C)[C@@H]5CC[C@]43C)C1=C(C(C)C)C(=O)C2", "read-out": "EC50", "cell line": "MT-2", "strain or isolate": "92HT599", "read by": "p24 / ELISA", "result": "<1 µM"}
{"compound": "Cc1nnc(C(=O)N(C)C2COCCn3c2nc(C(=O)NCc2ccc(F)cc2)c(O)c3=O)o1", "read-out": "EC95", "cell line": "MT-4", "read by": "p24", "result": "<1 µM"}
{"compound": "COc1ccnc2[nH]cc(C(=O)C(=O)N3C4CC3CN(C(=O)c3ccccc3)C4)c12", "read-out": "EC90", "cell line": "TZM-bl", "strain or isolate": "6535", "read by": "luciferase", "result": ">250 µM"}
{"compound": "Cc1cc(N2CCS(=O)CC2)ccc1NC(=O)COc1ccc(Cl)cc1C(=O)c1cccs1", "changes": "RT-K103N", "read-out": "fold resistance", "cell line": "HeLa + HELA CD4+", "strain or isolate": "HXB2", "read by": "β-galactosidase", "result": "~1"}
{"compound": "Cc1ccc(CNCC[C@@]23CC[C@]4(C)[C@H](CC[C@@H]5[C@@]6(C)CC[C@H](OC(=O)[C@H]7C[C@@H](C(=O)O)C7(C)C)C(C)(C)[C@@H]6CC[C@]54C)C2=C(C(C)C)C(=O)C3)cn1", "read-out": "EC50", "cell line": "MT-2", "strain or isolate": "92HT599", "read by": "p24 / ELISA", "result": "<1 µM"}
{"compound": "CC(C)[C@H](NC(=O)OCc1ccccn1)C(=O)N[C@@H](Cc1ccccc1)[C@@H](O)C[C@H](Cc1ccccc1)NC(=O)OCc1cccnc1", "changes": "PR-M46I", "read-out": "EC95", "cell line": "MT-4", "strain or isolate": "NL4-3", "read by": "p24", "result": "0.8 µM"}
{"compound": "Cc1ccc(-c2nc3ccc(C(=O)NCC[C@@]45CC[C@]6(C)[C@H](CC[C@@H]7[C@@]8(C)CC[C@H](OC(=O)[C@H]9C[C@@H](C(=O)O)C9(C)C)C(C)(C)[C@@H]8CC[C@]76C)C4=C(C(C)C)C(=O)C5)cc3[nH]2)cn1", "read-out": "EC50", "cell line": "MT-2", "strain or isolate": "92HT599", "read by": "p24 / ELISA", "result": "<1 µM"}
{"compound": "Cc1cc(S(N)(=O)=O)ccc1NC(=O)COc1ccc(Cl)cc1C(=O)c1cccc(C#N)c1", "changes": "RT-V108I Y181C", "read-out": "fold resistance", "cell line": "HeLa + HELA CD4+", "strain or isolate": "HXB2", "read by": "β-galactosidase", "result": "~1"}
{"compound": "CC(C)C1=C2[C@H]3CC[C@@H]4[C@@]5(C)CC[C@H](OC(=O)[C@H]6C[C@@H](C(=O)O)C6(C)C)C(C)(C)[C@@H]5CC[C@@]4(C)[C@]3(C)CC[C@@]2([C@@H](O)CNCc2ccccn2)CC1=O", "read-out": "EC50", "cell line": "MT-2", "strain or isolate": "92HT599", "read by": "p24 / ELISA", "result": "<1 µM"}
{"compound": "Cc1cc(C#N)cc(C(=O)c2cc(Cl)ccc2OCC(=O)Nc2ccc(OCCCN3CC=CC3)cc2C)c1", "changes": "RT-Y181C", "read-out": "fold resistance", "cell line": "MT-4", "strain or isolate": "Nevirapine-resistant (RT Y181C)", "read by": "cytopathic effect / propidium iodide", "result": "~1"}
{"compound": "CC(C)(C)NC(=O)N(Cc1ccccc1)CC(O)CN(CC1CCCC1)S(=O)(=O)c1ccccc1", "read-out": "EC90", "cell line": "CEM", "strain or isolate": "IIIB", "read by": "p24", "result": "1 µM"}
{"compound": "CCC(=O)c1ccc(F)c([C@@H]2C[C@@H]2NC(=O)Nc2ccc(C#N)cn2)c1O", "changes": "NNRTI-resistant (RT Y181C)", "read-out": "fold resistance", "cell line": "TZM-bl", "strain or isolate": "LAI", "read by": "β-galactosidase / luminescence", "result": "15.1"}
{"compound": "O=C1Nc2ccc(F)c(F)c2[C@@](/C=C/C2CC2)(C(F)(F)F)N1", "changes": "RT-V108I", "read-out": "EC90", "result": "<0.012 µM"}
{"compound": "Cc1nc(C)c(CNC[C@H](O)[C@@]23CC[C@]4(C)[C@H](CC[C@@H]5[C@@]6(C)CC[C@H](OC(=O)[C@H]7C[C@@H](C(=O)O)C7(C)C)C(C)(C)[C@@H]6CC[C@]54C)C2=C(C(C)C)C(=O)C3)s1", "read-out": "EC50", "cell line": "MT-2", "strain or isolate": "92HT599", "read by": "p24 / ELISA", "result": "<1 µM"}
{"compound": "CN1CCN(C(=O)C(=O)N(C)C2COCCn3c2nc(C(=O)NCc2ccc(F)cc2)c(O)c3=O)CC1", "read-out": "EC95", "cell line": "MT-4", "read by": "p24", "result": "<1 µM"}
{"compound": "COCCOc1cc(Cl)ccc1C(=O)NCC[C@@]12CC[C@]3(C)[C@H](CC[C@@H]4[C@@]5(C)CC[C@H](OC(=O)[C@H]6C[C@@H](C(=O)O)C6(C)C)C(C)(C)[C@@H]5CC[C@]43C)C1=C(C(C)C)C(=O)C2", "read-out": "EC50", "cell line": "MT-2", "strain or isolate": "92HT599", "read by": "p24 / ELISA", "result": "<1 µM"}
{"compound": "Cc1cc(S(N)(=O)=O)ccc1NC(=O)COc1ccc(Cl)cc1C(=O)c1cc(F)cc(F)c1", "changes": "RT-V106I", "read-out": "fold resistance", "cell line": "HeLa + HELA CD4+", "strain or isolate": "HXB2", "read by": "β-galactosidase", "result": "~1"}
{"compound": "CC(C)CN(C(=O)C(=O)C(=O)N(CC(C)C)S(=O)(=O)c1ccc(O)cc1)S(=O)(=O)c1ccccc1", "read-out": "EC90", "cell line": "CEM", "strain or isolate": "IIIB", "read by": "p24", "result": "1 µM"}
{"compound": "CC(C)C1=C2[C@H]3CC[C@@H]4[C@@]5(C)CC[C@H](OC(=O)[C@H]6C[C@@H](C(=O)O)C6(C)C)C(C)(C)[C@@H]5CC[C@@]4(C)[C@]3(C)CC[C@@]2(CCNC(=O)c2ccc(O[C@@H]3CCOC3)cc2)CC1=O", "read-out": "EC50", "cell line": "MT-2", "strain or isolate": "92HT599", "read by": "p24 / ELISA", "result": "<1 µM"}
{"compound": "O=C1Nc2ccc(F)c(F)c2[C@@](C#CC2CC2)(C(F)(F)F)N1", "changes": "RT-K103N Y181C", "read-out": "EC90", "result": "~0.015 µM"}
{"compound": "COc1ccc(S(=O)(=O)N(CC(O)CN(Cc2ccccc2)C(=O)O[C@@H]2CCOC2)CC2CCCC2)cc1", "read-out": "EC90", "cell line": "CEM", "strain or isolate": "IIIB", "read by": "p24", "result": "1 µM"}
{"compound": "Nc1nc(=O)n([C@H]2C=C[C@@H](CO)O2)cc1F", "changes": "RT-A62V V75I F77C F116Y Q151M", "read-out": "EC90", "cell line": "PBMC", "strain or isolate": "XM-Q151M", "read by": "p24", "result": "26 µM"}
{"compound": "Cc1cc(S(N)(=O)=O)ccc1NC(=O)COc1ccc(Cl)cc1C(=O)c1cccc(C#N)n1", "changes": "RT-K103N P225H", "read-out": "fold resistance", "cell line": "HeLa + HELA CD4+", "strain or isolate": "HXB2", "read by": "β-galactosidase", "result": "~1"}
{"compound": "CN1CCn2c(nc(C(=O)NCc3ccc(F)cc3)c(O)c2=O)C(NC(=O)C(=O)N(C)C)C1", "read-out": "EC95", "cell line": "MT-4", "read by": "p24", "result": "<1 µM"}
{"compound": "COc1ccnc2[nH]cc(C(=O)C(=O)N3C4CCCC3CN(C(=O)c3ccccc3)C4)c12", "read-out": "EC99", "cell line": "TZM-bl", "strain or isolate": "QH0692", "read by": "luciferase", "result": "124 µM"}
{"compound": "O=C(OC1COCOC1)N(Cc1ccccc1)CC(O)CN(CC1CCCC1)S(=O)(=O)c1ccccc1", "read-out": "EC90", "cell line": "CEM", "strain or isolate": "IIIB", "read by": "p24", "result": "1 µM"}
{"compound": "CN(C)CC(=O)N1CCn2c(nc(C(=O)NCc3ccc(F)cc3)c(O)c2=O)C1(C)C", "read-out": "EC95", "cell line": "MT-4", "read by": "p24", "result": "<1 µM"}
{"compound": "CC(C)=CCOc1cc(NC(=S)c2ccsc2C)ccc1Cl", "changes": "RT-Y181C", "read-out": "fold resistance", "cell line": "CEM + CEM-SS", "strain or isolate": "4XAZT+Y181C (RT D67N K70R Y181C T215Y K219Q)", "read by": "p24", "result": "17"}
{"compound": "Cc1cc(OCCCS(N)(=O)=O)ccc1NC(=O)COc1ccc(Cl)cc1C(=O)c1cc(F)cc(C(F)(F)F)c1", "changes": "RT-K103N V108I", "read-out": "fold resistance", "cell line": "HeLa + HELA CD4+", "strain or isolate": "HXB2", "read by": "β-galactosidase", "result": "~1"}
{"compound": "CC(C)C1=C2[C@H]3CC[C@@H]4[C@@]5(C)CC[C@H](OC(=O)[C@H]6C[C@@H](C(=O)O)C6(C)C)C(C)(C)[C@@H]5CC[C@@]4(C)[C@]3(C)CC[C@@]2([C@@H](O)CNC(=O)C(C)(CCN)NC(=O)c2ccc(Cl)cc2)CC1=O", "read-out": "EC50", "cell line": "MT-2", "strain or isolate": "92HT599", "read by": "p24 / ELISA", "result": "<1 µM"}

2 of the rows above, restated:

| compound | changes | read-out | cell line | strain or isolate | read by | result |
|---|---|---|---|---|---|---|
| Cc1cc(S(N)(=O)=O)ccc1NC(=O)COc1ccc(Cl)cc1C(=O)c1cc(Cl)cc(Cl)c1 | RT-K103N | fold resistance | HeLa + HELA CD4+ | HXB2 | β-galactosidase | ~1 |
| Cc1cc(OCCCS(N)(=O)=O)ccc1NC(=O)COc1ccc(Cl)cc1C(=O)c1cc(F)cc(C(F)(F)F)c1 | RT-K103N V108I | fold resistance | HeLa + HELA CD4+ | HXB2 | β-galactosidase | ~1 |

Rows are shuffled and stem from different studies. ECn: concentration that inhibits the pathogen or its effect by n%.